Sequences of proteins named here, by UniProt entry; tags and fusion partners are left off. Residues count along the entry.
UniProt P15917, 34-809 limits assumed: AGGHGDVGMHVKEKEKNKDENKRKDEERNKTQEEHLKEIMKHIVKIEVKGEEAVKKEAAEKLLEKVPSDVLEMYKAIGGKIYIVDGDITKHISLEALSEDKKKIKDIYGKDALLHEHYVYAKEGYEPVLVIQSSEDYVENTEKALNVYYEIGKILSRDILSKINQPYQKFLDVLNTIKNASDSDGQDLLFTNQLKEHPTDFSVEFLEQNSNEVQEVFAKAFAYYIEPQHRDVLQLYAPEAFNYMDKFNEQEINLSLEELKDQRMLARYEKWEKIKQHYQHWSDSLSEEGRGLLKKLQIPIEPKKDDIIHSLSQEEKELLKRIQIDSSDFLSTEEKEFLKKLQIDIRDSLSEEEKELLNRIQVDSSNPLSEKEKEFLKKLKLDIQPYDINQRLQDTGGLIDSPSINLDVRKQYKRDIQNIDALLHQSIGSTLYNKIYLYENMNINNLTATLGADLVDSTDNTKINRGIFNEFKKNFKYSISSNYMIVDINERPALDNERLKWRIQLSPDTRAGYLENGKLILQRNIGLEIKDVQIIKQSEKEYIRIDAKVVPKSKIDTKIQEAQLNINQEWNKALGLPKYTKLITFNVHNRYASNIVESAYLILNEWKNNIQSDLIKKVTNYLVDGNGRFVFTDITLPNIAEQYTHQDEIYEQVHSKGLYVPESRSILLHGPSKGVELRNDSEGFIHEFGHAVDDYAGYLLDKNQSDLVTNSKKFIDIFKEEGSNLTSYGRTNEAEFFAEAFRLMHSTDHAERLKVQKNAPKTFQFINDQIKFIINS

In PMC4550849 (Scientific Reports, 2015):

Biological target: LF (Bacillus anthracis, UniProt P15917)
Format: biochemical

surfen hydrate
proteolytic activity of LF on MAPKK peptide (emission at 523 nm): no emission at 523 nm was seen
